Pooled drug test results. Numbers come from NIAID ChemDB, via PubChem.

Common to all: cytotoxicity tests; cell line: PBL; endpoint: CC50

Rows are shuffled and stem from different studies. Blank or dashed fields: not listed here. a–b is a range or a potency band. CCn: concentration that lowers growth or viability of the cells by n%.

| compound | method | value |
|---|---|---|
| O=C1c2c(O)cc(O)cc2O[C@]12c1c(cc(O)c3c1O[C@H](c1ccc(O)cc1)CC3)O[C@H]2c1ccc(O)cc1 |  | 65 µg/mL |
| CC(=O)N[C@@H](CC(C)C)C(=O)N[C@H](C(=O)N[C@@H](CC(C)C)C(=O)N[C@@H](CC(N)=O)C(=O)N[C@@H](Cc1ccccc1)C(=O)O)[C@@H](C)O |  | >200 µg/mL |
| O=c1cc(CCl)nc2c3ncn([C@@H]4O[C@H](CO)[C@@H](O)[C@H]4O)c3ncn12 |  | 15 µM |
| C[C@H](Cn1cnc2c(N)ncnc21)OCP(=O)(O)O |  | >100 µg/mL |
| CSCC[C@H](NC(=O)[C@H](Cc1cnc[nH]1)NC(C)=O)C(=O)N[C@H](C(=O)N[C@@H](CC(C)C)C(=O)N[C@@H](CC(N)=O)C(=O)N[C@@H](Cc1ccccc1)C(=O)O)[C@@H](C)O |  | >200 µg/mL |
| Cc1nc(Oc2ccc(S(=O)(=O)C(C)C)cc2)ccc1CN1CCC(N2C(=O)N(c3cc(C(N)=O)c(F)cc3F)C[C@H]2c2ccccc2)CC1 |  | 1.1 nM |
| COc1ccc2c(c1)N(C(=O)OC(C)C)[C@@H](CSC)C(=S)N2 |  | 25 µM |
| CSCC[C@H](N)C(=O)N[C@H](C(=O)N[C@@H](CC(C)C)C(=O)N[C@@H](CC(N)=O)C(=O)N[C@@H](Cc1ccccc1)C(=O)O)[C@@H](C)O |  | >200 µg/mL |
| CCc1c(Sc2ccccc2)n(COCc2ccccc2)c(=O)[nH]c1=O |  | 22 µM |
| C[C@H]1[C@H](O)[C@@H](C)/C=C/C=C/C=C/C=C/C=C/C=C/C=C/[C@H](O[C@@H]2O[C@H](C)[C@@H](O)[C@H](N)[C@@H]2O)C[C@@H]2O[C@](O)(C[C@@H](O)C[C@@H](O)CC[C@H](O)[C@@H](O)C[C@@H](O)CC(=O)O[C@H]1C)C[C@H](O)[C@H]2C(=O)O | MTT | >10 µM |
| CC[C@@]1(O)C(=O)OCc2c1cc1n(c2=O)Cc2cc3c([N+](=O)[O-])cccc3nc2-1 |  | ~0.02 µM |
| C=C(C)OC(=O)N1c2cc(Cl)ccc2NC(=S)C1(C)C |  | 53 µM |
| O=C(OC[C@H]1O[C@@H](OC(=O)c2cc(OS(=O)(=O)O)c(OS(=O)(=O)O)c(OS(=O)(=O)O)c2)[C@H](OC(=O)c2cc(OS(=O)(=O)O)c(OS(=O)(=O)O)c(OS(=O)(=O)O)c2)[C@@H](OC(=O)c2cc(OS(=O)(=O)O)c(OS(=O)(=O)O)c(OS(=O)(=O)O)c2)[C@@H]1OC(=O)c1cc(OS(=O)(=O)O)c(OS(=O)(=O)O)c(OS(=O)(=O)O)c1)c1cc(OS(=O)(=O)O)c(OS(=O)(=O)O)c(OS(=O)(=O)O)c1 |  | 150–500 µg/mL |
| CC(=O)N[C@H](C(=O)N[C@@H](CC(C)C)C(=O)N[C@@H](CC(N)=O)C(=O)N[C@@H](Cc1ccccc1)C(=O)O)[C@@H](C)O |  | >200 µg/mL |
| CCCCC#CCSc1ccccc1OC(C)=O | MTT | 147 µM |
| C[C@H](CCC(=O)O)[C@H]1CC[C@H]2[C@@H]3[C@H](O)C[C@@H]4C[C@H](O)CC[C@]4(C)[C@H]3C[C@H](O)[C@]12C |  | 0.004 µM |
| CC(CO)n1cnc2c(Cl)nc(N)nc21 |  | >100 µM |
| COc1cc(N=Nc2cc(S(=O)(=O)O)cc3cc(S(=O)(=O)O)cc(O)c23)c(C)cc1NC(=O)Nc1cc(C)c(N=Nc2cc(S(=O)(=O)O)cc3cc(S(=O)(=O)O)cc(O)c23)cc1OC |  | >100 µM |
| CC(=O)c1ccc(C)cc1NC(C(N)=O)c1c(Cl)cccc1Cl |  | >300 µM |
| CC(=O)OC1C(OC(C)=O)[C@H](n2cnc3c2ncn2c(CCl)cc(=O)nc32)O[C@@H]1OC(C)=O |  | 150 µM |
| Nc1nc(N)c2ncn(OCCCCP(=O)(O)O)c2n1 | MTT | >100 µM |
| CCn1c(C)c(C(=O)OC)c(C(=O)OC)c1Cc1ccccc1 |  | 175 µM |
| Nc1nc(Cl)c2ncn(CCCO)c2n1 |  | >100 µM |
| NC(=O)c1c(Cl)c(-c2cccnc2)n2c1CCCC2 |  | 144 µM |
| CCCCCCCCNCC(O)CCCCCCCCCn1c(=O)c2c(ncn2C)n(C)c1=O |  | >32 µM |
| CC(=O)N[C@H](C(=O)N[C@@H](CC(C)C)C(=O)N[C@@H](CC(N)=O)C(=O)N[C@@H](Cc1ccccc1)C(N)=O)[C@@H](C)O |  | >200 µg/mL |

The first 4 rows once more:

compound | method | value
O=C1c2c(O)cc(O)cc2O[C@]12c1c(cc(O)c3c1O[C@H](c1ccc(O)cc1)CC3)O[C@H]2c1ccc(O)cc1 |  | 65 µg/mL
CC(=O)N[C@@H](CC(C)C)C(=O)N[C@H](C(=O)N[C@@H](CC(C)C)C(=O)N[C@@H](CC(N)=O)C(=O)N[C@@H](Cc1ccccc1)C(=O)O)[C@@H](C)O |  | >200 µg/mL
O=c1cc(CCl)nc2c3ncn([C@@H]4O[C@H](CO)[C@@H](O)[C@H]4O)c3ncn12 |  | 15 µM
C[C@H](Cn1cnc2c(N)ncnc21)OCP(=O)(O)O |  | >100 µg/mL